Anti-infective test results gathered from many reports (values: NIAID ChemDB through PubChem).

Shared fields: whole-cell or culture tests; species: Hepatitis C virus; read-out: EC50

ECn is the concentration giving n% inhibition of infection, replication or growth. Blank or dashed fields: not listed here. Conditions beyond the fields shown may differ between rows.

smiles,strain or isolate,method,value
NS(=O)(=O)c1ccc(CNc2nc(NC3CC3)c3nc(-c4ccc(C(=O)NC5CC5)cc4)ccc3n2)cc1,-,replicon,<0.1 µM
O=c1c(-c2noc(Cc3ccc(F)cc3)n2)cn(Cc2ccc(Cl)cc2)c2cc(N3CCN(c4ccccn4)CC3)c(F)cc12,1b,replicon,>10 µM
CC1CCC(C(=O)N(c2cc(-c3cnc(NC(=O)c4cscn4)c(Cl)c3)sc2C(=O)O)C(C)C)CC1,1b,replicon,<0.5 µM
O=c1c(-c2noc(Cc3ccccc3)n2)cn(Cc2ccc(C(F)(F)F)cc2F)c2cc(-n3ccnc3)c(F)cc12,1b,replicon,<10 µM
CCOc1nc(NCc2ccc(F)cc2)nc2ccc(-c3ccc(NC(=O)C4(N)CC4)cc3)nc12,-,replicon,<0.1 µM
CC1(C)CC(=O)C2=C(C1)Nc1c(O)cccc1N(C(=O)COc1ccc(Cl)cc1)C2c1ccc(OCc2ccccc2)cc1F,1b,luciferase / reporter gene / replicon,1.72 µM
CC(c1ccccc1)c1nc(-c2cn(Cc3ccc(C(C)(C)C)cc3)c3cc(N4CCCNCC4)c(F)cc3c2=O)no1,1b,replicon,<2 µM
CC(=O)N1c2cccc(O)c2NC2=C(C(=O)CC(C)(C)C2)C1c1cn(C)c2ccccc12,1b,luciferase / reporter gene / replicon,93.67 µM
CCOc1nc(NCc2ccc(F)cc2)nc2ccc(-c3ccc(NC(=O)C4CC4)cc3)nc12,-,replicon,<0.1 µM
Cc1cccc(Cn2c(C(=O)NS(C)(=O)=O)c(-c3ccc[nH]c3=O)c3c4occc4ccc32)c1F,-,replicon,<0.5 µM
CC(C)C(=O)N1c2cccc(O)c2NC2=C(C(=O)CC(C)(C)C2)C1c1ccc(OCc2ccccc2)c(F)c1,1b,luciferase / reporter gene / replicon,1.27 µM
NC(=O)COc1ccc2c(c1)S(=O)(=O)N=C(c1c(O)c3cc(F)ccc3n(CCC3CC3)c1=O)N2,1b Con1,replicon,0.0037 µM
CC1CCC(C(=O)N(c2cc(-c3ccc(NC(=O)c4ccccn4)cc3)sc2C(=O)O)C(C)C)CC1,1b,replicon,<0.5 µM
CC(C)(c1ccc(Cl)cc1)c1nc(-c2cn(Cc3ccc(C(F)(F)F)cc3)c3cc(N4CCS(=O)(=O)CC4)c(F)cc3c2=O)no1,1b,replicon,<0.5 µM
Cc1ccoc1C(=O)Nc1ccc(-c2cc(N(C(=O)C3CCC(C)CC3)C(C)C)c(C(=O)O)s2)cc1,1b,replicon,<0.5 µM
CC(C)C(=O)N1c2cccc(O)c2NC2=C(C(=O)CC(C)(C)C2)C1c1ccc(Oc2ccccc2Br)cc1Cl,1b,luciferase / reporter gene / replicon,4.06 µM
CC1CCC(C(=O)N(c2cc(-c3ccc(NC(=O)c4cnn(C)c4)cc3)sc2C(=O)O)C(C)C)CC1,1a,replicon,<0.5 µM
C[C@@H]1CN(c2cc3c(cc2F)c(=O)c(-c2noc(C(C)(C)c4ccc(F)cc4)n2)cn3Cc2ccc(C(F)(F)F)cc2)C[C@H](C)N1,1b,replicon,<0.5 µM
O=C(O)c1c(-c2ccc[nH]c2=O)c2c3occ(Cl)c3c(F)cc2n1Cc1cc(F)ccc1F,-,replicon,<0.5 µM
Cc1cnc(C(=O)Nc2ccc(-c3cc(N(C(=O)C4CCC(C)CC4)C(C)C)c(C(=O)O)s3)cc2)cn1,1a,replicon,<0.5 µM
CC(=O)N1c2cccc(O)c2NC2=C(C(=O)CC(C)(C)C2)C1c1cc(Cl)ccc1Cl,1b,luciferase / reporter gene / replicon,>100 µM
CN1CCN(c2cc3c(cc2F)c(=O)c(-c2noc(Cc4ccc(F)cc4)n2)cn3Cc2c(F)cccc2Cl)CC1,1b,replicon,>10 µM
NC(=O)c1cc(Cn2c(C(=O)NS(=O)(=O)C3CC3)c(-c3ccc[nH]c3=O)c3c4occc4c(F)cc32)cs1,-,replicon,<0.5 µM
Cc1cnccc1NC(=O)CCC(=O)N1c2cccc(O)c2NC2=C(C(=O)CC(C)(C)C2)C1c1ccc(OCc2ccccc2)cc1Cl,1b,luciferase / reporter gene / replicon,5.52 µM
CCc1coc2c1ccc1c2c(-c2ccc[nH]c2=O)c(C(=O)NS(C)(=O)=O)n1Cc1ccccc1F,-,replicon,>1.5 µM
CCOc1nc(NCc2ccc(S(N)(=O)=O)cc2)nc2ccc(-c3ccc(C(=O)NC(C)(C)CN4CCCC4)cc3)nc12,-,replicon,<0.1 µM
O=C(O)c1c(-c2ccc[nH]c2=O)c2c3occc3c(F)cc2n1Cc1nc(Br)ccc1F,-,replicon,<0.5 µM
CC1(C)CC(=O)C2=C(C1)Nc1c(O)cccc1NC2c1ccoc1,1b,luciferase / reporter gene / replicon,67.73 µM
CC(C)(C)OC(=O)n1nc(N)c2cc(Cn3c(C(=O)O)c(-c4ccc[nH]c4=O)c4c5occc5c(F)cc43)ccc21,-,replicon,<0.5 µM
CC1(C)CC(=O)C2=C(C1)Nc1c(O)cccc1N(C(=O)CCC(=O)N1Cc3ccccc3C1)C2c1ccc(OCc2ccccc2)cc1Cl,1b,luciferase / reporter gene / replicon,5.56 µM

For reference, 4 entries again:

smiles	strain or isolate	method	value
CC(C)C(=O)N1c2cccc(O)c2NC2=C(C(=O)CC(C)(C)C2)C1c1ccc(OCc2ccccc2)c(F)c1	1b	luciferase / reporter gene / replicon	1.27 µM
CCOc1nc(NCc2ccc(F)cc2)nc2ccc(-c3ccc(NC(=O)C4CC4)cc3)nc12	-	replicon	<0.1 µM
CC(c1ccccc1)c1nc(-c2cn(Cc3ccc(C(C)(C)C)cc3)c3cc(N4CCCNCC4)c(F)cc3c2=O)no1	1b	replicon	<2 µM
CC1(C)CC(=O)C2=C(C1)Nc1c(O)cccc1N(C(=O)CCC(=O)N1Cc3ccccc3C1)C2c1ccc(OCc2ccccc2)cc1Cl	1b	luciferase / reporter gene / replicon	5.56 µM